# Where “and” joins values, the source holds several entries; their conditions need not be identical. Identical values can stand only once. Like-named read-outs stand apart in the source and are kept apart here.
# Test system: bloodstream form of T. brucei (strain 221)
# Conditions: for SITb (selectivity index): ratio of cytotoxic (L6 cells) to anti-T. brucei IC50 values; for IC50: read-out: T. brucei IC50; for IC50 / IC90: bloodstream form; for IC90: read-out: T. brucei IC90
# [1] = pH 7.4, mean of triplicate ± SEM
Structure (SMILES),SITb (selectivity index),IC50 [1],IC90 [1] [nM],selectivity index relative to huprine Y (increased) (SI L6 cells / T. brucei) [fold],selectivity index relative to nifurtimox (increased) (SI L6 cells / T. brucei) [fold],antitrypanosomal potency relative to huprine Y (more potent) (T. brucei IC50 values) [fold],antitrypanosomal potency relative to nifurtimox (more potent) (T. brucei IC50 values) [fold],antitrypanosomal potency relative to huprine Y (more potent) (in terms of the T. brucei IC90 values) [fold],IC50 [nM],IC90 [nM]
CC1=C[C@@H]2Cc3nc4cc(Cl)ccc4c(NCCCCCCC#N)c3[C@H](C1)C2 [4c],13.5,860 ± 50 nM,1220 ± 30,,,,,,,
CC1=C[C@@H]2Cc3nc4cc(Cl)ccc4c(NCCCCCCCC#N)c3[C@H](C1)C2 [4d],12.3,620 ± 20 nM,850 ± 10,,,,,,,
CC1=C[C@@H]2Cc3nc4cc(Cl)ccc4c(NCCCCCCCCC#N)c3[C@H](C1)C2 [4e],25 and 25.1,300 nM and 320 nM,420 ± 10,2,3.5,2,14,7,320,420
CC1=C[C@@H]2Cc3nc4cc(Cl)ccc4c(NCCCCCCCCCCC#N)c3[C@H](C1)C2 [4g],,1370 ± 60 nM,1910 ± 20,,,,,,,
CC1=C[C@@H]2Cc3nc4cc(Cl)ccc4c(NCCCCCN)c3[C@H](C1)C2 [5a],4.2,920 ± 80 nM,2920 ± 430,,,,,,,
CC1=C[C@@H]2Cc3nc4cc(Cl)ccc4c(NCCCCCCN)c3[C@H](C1)C2 [5b],2.4,2030 ± 100 nM,3090 ± 210,,,,,,,
"CC1CS(=O)(=O)CCN1/N=C/c1ccc([N+](=O)[O-])o1 (stereo not shown) [Nifurtimox, reference compound]",7.3,,,,,,,,,
